Data as given in PubChem BioAssay AID504761 (Drosophila RNAi Screening Center, 2011)

- Screen: 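Fly genes whose silencing reduces dengue virus type 2 infection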 (primary screen)
- Cell system: D.Mel-2 cells from Drosophila
- Reagent: long dsRNA against Drosophila genes
- Conditions: infection with dengue virus type 2; dose and infection time not stated
- Read-out: 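Per well on two replicate plates, imaging gave the percent of cells positive for viral envelope protein, ranked by infection, and a nuclear count of cells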
- Reading the numbers: infection score: higher = more virus-infected cells; cell count: higher = more cells in the well
- Active means: 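Low infection ranks in the two replicates (chance level up to 0.065) followed by a retest with a 1.5-fold or larger significant decrease, p below 0.05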
- Calls: active = confirmed: knock-down lowers infection; inactive = not picked or not confirmed
The screen tested about 22,000 reagents; shown is an unselected part of those with a known target gene and a result. Of all reagents, 116 (0.52%) are marked active. 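Calls depend on retest data that are not deposited; infection was ranked per plate without normalising between plates; the unit of the infection score is not given.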 Raw values are not corrected between plates. A number with no mark means an inactive call. The numbers tell different reagents against one gene apart. A plus sign joins genes that one reagent is predicted to hit. Not stated in the record: the amount of reagent, the time to read-out.

The first 3 entries, to show the layout:
| gene | dsRNA no. | infection score, replicate 1 | infection score, replicate 2 | cell count, replicate 1 | cell count, replicate 2 |
| --- | --- | --- | --- | --- | --- |
| Lipt1 (GeneID 36795) | 1 | 14.9 | 6.13 | 6179 | 6310 |
| eIF4G1 (GeneID 43839) | 1 | 7.71 | 13.1 | 6924 | 6816 |
| eIF4G1 (GeneID 43839) | 2 | 21.1 | 14.3 | 5702 | 5888 |

The listing, from the first entry:
| gene | dsRNA no. | infection score, replicate 1 | infection score, replicate 2 | cell count, replicate 1 | cell count, replicate 2 |
| --- | --- | --- | --- | --- | --- |
| Lipt1 (GeneID 36795) | 1 | 14.9 | 6.13 | 6179 | 6310 |
| eIF4G1 (GeneID 43839) | 1 | 7.71 | 13.1 | 6924 | 6816 |
| eIF4G1 (GeneID 43839) | 2 | 21.1 | 14.3 | 5702 | 5888 |
| CG40053 (retired record) (GeneID 3355092) | 1 | 4.08 | 7.25 | 6587 | 6674 |
| CG40053 (retired record) (GeneID 3355092) | 2 | 4.08 | 15.4 | 1959 | 6030 |
| CG40053 (retired record) (GeneID 3355092) | 3 | 4.89 | 6.14 | 5769 | 5246 |
| mtTFB2 (GeneID 41228) | 1 | 8.6 | 22 | 6143 | 5615 |
| dah (GeneID 32459) | 1 | 3.84 | 4.21 | 6481 | 6127 |
| CG14564 (GeneID 40425) | 1 | 7.96 | 28.7 | 6696 | 5855 |
| CG14564 (GeneID 40425) | 2 | 2.43 | 2.5 | 6142 | 6370 |
| CG11162 (GeneID 32325) | 1 | 9.74 | 9.48 | 6353 | 6411 |
| CG11162 (GeneID 32325) | 2 | 15.3 | 0.64 | 3885 | 6696 |
| tai (GeneID 34242) | 1 | 2.42 | 3.41 | 6152 | 6105 |
| narya (GeneID 32932) | 1 | 5.13 | 5.85 | 6435 | 1145 |
| mRpL36 (GeneID 59151) | 1 | 8.53 | 10.8 | 4899 | 4858 |
| fax (GeneID 39826) | 1 | 5.72 | 11.9 | 6574 | 5243 |
| fax (GeneID 39826) | 2 | 18.8 | 29.5 | 3711 | 5557 |
| CG1578 (GeneID 32135) | 1 | 2.7 | 2.43 | 6138 | 6333 |
| CG1578 (GeneID 32135) | 2 | 4.24 | 16 | 6220 | 6638 |
| CG31206 (GeneID 318627) | 1 | 0.82 | 1.68 | 5986 | 5429 |
| vis + achi | 1 | 3.38 | 9.24 | 6099 | 6006 |
| CG10527 (GeneID 37393) | 1 | 17.9 | 33.1 | 6722 | 5400 |
| CG10527 (GeneID 37393) | 2 | 12.1 | 6.46 | 5640 | 6916 |
| CG6294 + CG6299 + CG15642 | 1 | – | – | 422 | 324 |
| Vps45 (GeneID 41153) | 1 | 3.64 | 7.42 | 6488 | 6633 |
| exp (GeneID 36276) | 1 | 16.1 | 16.1 | 4862 | 6179 |
| exp (GeneID 36276) | 2 | 3.15 | 4.92 | 6675 | 6205 |
| Lrpprc2 (GeneID 31095) | 1 | 3.07 | 2.16 | 5904 | 6722 |
| Lrpprc2 (GeneID 31095) | 2 | 11.1 | 12.7 | 6806 | 5754 |
| mRpS34 (GeneID 39809) | 1 | 1.62 | 4.23 | 5240 | 5695 |
| mRpS34 (GeneID 39809) | 2 | 8.37 | 13.9 | 1924 | 5499 |
| Pgls (GeneID 32013) | 1 | 1.54 | 1.88 | 6547 | 6502 |
| Cp16 (GeneID 39001) | 1 | 2.9 | 1.37 | 5898 | 6954 |
| Cp16 (GeneID 39001) | 2 | 5.75 | 1.94 | 6195 | 5713 |
| CG30056 (GeneID 246422) | 1 | 4.37 | 11.5 | 6733 | 5560 |
| I-3 (GeneID 33068) | 1 | 4.97 | 1.2 | 6298 | 5982 |
| CG14151 (GeneID 39201) | 1 | 2.25 | 5.83 | 5504 | 6266 |
| nerfin-2 (GeneID 41235) | 1 | 3.18 | 10.6 | 6550 | 6145 |
| nerfin-2 (GeneID 41235) | 2 | 13.9 | 10.1 | 3927 | 4084 |
| onecut (GeneID 45816) | 1 | 9.95 | 2.16 | 5063 | 6023 |
| onecut (GeneID 45816) | 2 | 3.07 | 2.32 | 6131 | 6349 |
| CG15706 (GeneID 36799) | 1 | 19.1 | 11.6 | 5601 | 6404 |
| CG33221 (retired record) (GeneID 2768878) | 1 | 10.2 | 15.2 | 6208 | 5188 |
| egl (GeneID 37757) | 1 | 2.62 | 9.75 | 6108 | 6187 |
| Inx7 (GeneID 33027) | 1 | 0.95 | 1.14 | 6753 | 6771 |
| Inx7 (GeneID 33027) | 2 | 2.14 | 2.53 | 6624 | 6920 |
| tth (GeneID 32318) | 1 | 6.19 | 30.4 | 6642 | 2464 |
| tth (GeneID 32318) | 2 | 2.58 | 6.58 | 6625 | 6640 |
| Pfdn5 (GeneID 42647) | 1 | 3.77 | 11 | 6337 | 6428 |
| ko (GeneID 40330) | 1 | 6.09 | 3.52 | 6399 | 6302 |
| ko (GeneID 40330) | 2 | 7.95 | 5.34 | 6392 | 6027 |
| CG5776 (GeneID 34680) | 1 | 23.2 | 13 | 5998 | 6364 |
| CG34057 (GeneID 3885645) | 1 | 1.05 | 2.33 | 5605 | 5886 |
| CG6472 (GeneID 36895) | 1 | 3.15 | 11.4 | 6731 | 5620 |
| aurB (GeneID 34504) | 1 | 20.8 | 20.1 | 1123 | 633 |
| aurB (GeneID 34504) | 2 | 2.71 | 4.71 | 998 | 891 |
| cdi (GeneID 42289) | 1 | 1.27 | 3.09 | 6636 | 6378 |
| cdi (GeneID 42289) | 2 | 17.9 | 14.4 | 5058 | 5706 |
